# Laboratory results published in patent publication US20220105119A1, “DELIVERY OF AEROSOLIZED MICROMOLAR COMPOSITION CONCENTRATIONS” (Amcyte Pharma Inc., priority 2020, published 2022).
# Conditions: in vivo
substance,measurement,value
Ivermectin,highest concentration achievable in the lungs,573.1 ng/mL
same,highest concentration with lung accumulation,≈ 410 ng/mL
